Experimental findings from patent US20070049564A1 (Wyeth, priority 2005, published 2007) are described below.

The structures appear in SMILES notation.

Some test systems named below: S. cholerasius GC 1355; Salmonella spp. GC 235; Salmonella spp. GC 566.
Assay in all cases: MIC, broth microdilution

For `CCCCCCC(=O)OCOC(=O)N(CC(=O)Nc1cc(N(C)C)c2c(c1O)C(=O)C1=C(O)[C@]3(O)C(=O)C(C(N)=O)=C(O)[C@@H](N(C)C)[C@@H]3C[C@@H]1C2)C(C)(C)C` [Example 48, ({[(2-{[(5aR,6aS,7S,10aS)-9-(aminocarbonyl)-4,7-bis(dimethylamino)-1,8,10a,11-tetrahydroxy-10,12-dioxo-5,5a,6,6a,7,10,10a,12-octahydrotetracen-2-yl]amino}-2-oxoethyl)(tert-butyl)amino]carbonyl}oxy)methyl heptanoate], the “MINIMAL INHIBITORY CONCENTRATION MIC” value with S. cholerasius GC 1355 (Human Serum) is given as above 64 UG/ML; in the assay on S. cholerasius GC 1355 (Mouse Serum), 4 UG/ML; in the assay with S. cholerasius GC 1355 (Water), above 64 UG/ML; in the assay with Salmonella spp. GC 235 (Human Serum), 32 UG/ML; in the assay with Salmonella spp. GC 235 (Mouse Serum) it was 0.50 UG/ML; with Salmonella spp. GC 235 (Water) it was above 64 UG/ML. Further, the “MINIMAL INHIBITORY CONCENTRATION MIC” value is on record as above 64 UG/ML with Salmonella spp. GC 566 (Human Serum), 2 UG/ML in the assay on Salmonella spp. GC 566 (Mouse Serum) and above 64 UG/ML with Salmonella spp. GC 566 (Water).

As to `CCC(=O)OCOC(=O)N(CC(=O)Nc1cc(N(C)C)c2c(c1O)C(=O)C1=C(O)[C@]3(O)C(=O)C(C(N)=O)=C(O)[C@@H](N(C)C)[C@@H]3C[C@@H]1C2)C(C)(C)C` [Example 49, ({[(2-{[(5aR,6aS,7S,10aS)-9-(aminocarbonyl)-4,7-bis(dimethylamino)-1,8,10a,11-tetrahydroxy-10,12-dioxo-5,5a,6,6a,7,10,10a,12-octahydrotetracen-2-yl]amino}-2-oxoethyl)(tert-butyl)amino]carbonyl}oxy)methyl propionate], the “MINIMAL INHIBITORY CONCENTRATION MIC” value was 64 UG/ML with S. cholerasius GC 1355 (Human Serum); 4 UG/ML in the assay with S. cholerasius GC 1355 (Mouse Serum); above 64 UG/ML in the assay with S. cholerasius GC 1355 (Water); 16 UG/ML in the assay on Salmonella spp. GC 235 (Human Serum); 1 UG/ML in the assay with Salmonella spp. GC 235 (Mouse Serum); 32 UG/ML in the assay on Salmonella spp. GC 235 (Water). Besides, the “MINIMAL INHIBITORY CONCENTRATION MIC” value in the assay on Salmonella spp. GC 566 (Human Serum) is given as 32 UG/ML; with Salmonella spp. GC 566 (Mouse Serum), 2 UG/ML; in the assay on Salmonella spp. GC 566 (Water), 64 UG/ML.

Turning to `CN(C)c1cc(NC(=O)CN(C(=O)OCOC(=O)C2CCCCC2)C(C)(C)C)c(O)c2c1C[C@H]1C[C@H]3[C@H](N(C)C)C(O)=C(C(N)=O)C(=O)[C@@]3(O)C(O)=C1C2=O` [Example 50, ({[(2-{[(5aR,6aS,7S,10aS)-9-(aminocarbonyl)-4,7-bis(dimethylamino)-1,8,10a,11-tetrahydroxy-10,12-dioxo-5,5a,6,6a,7,10,10a,12-octahydrotetracen-2-yl]amino}-2-oxoethyl)(tert-butyl)amino]carbonyl}oxy)methyl cyclohexanecarboxylate], the “MINIMAL INHIBITORY CONCENTRATION MIC” value with S. cholerasius GC 1355 (Human Serum) is 64 UG/ML; in the assay with S. cholerasius GC 1355 (Mouse Serum), 4 UG/ML; in the assay with S. cholerasius GC 1355 (Water), above 64 UG/ML; in the assay on Salmonella spp. GC 235 (Human Serum) it was 32 UG/ML; with Salmonella spp. GC 235 (Mouse Serum), 2 UG/ML; in the assay on Salmonella spp. GC 235 (Water), above 64 UG/ML. In addition, the “MINIMAL INHIBITORY CONCENTRATION MIC” value was 32 UG/ML with Salmonella spp. GC 566 (Human Serum), 4 UG/ML with Salmonella spp. GC 566 (Mouse Serum) and above 64 UG/ML in the assay with Salmonella spp. GC 566 (Water).

In the case of `Cc1cc(C)cc(C(=O)OCOC(=O)N(CC(=O)Nc2cc(N(C)C)c3c(c2O)C(=O)C2=C(O)[C@]4(O)C(=O)C(C(N)=O)=C(O)[C@@H](N(C)C)[C@@H]4C[C@@H]2C3)C(C)(C)C)c1` [Example 51], the “MINIMAL INHIBITORY CONCENTRATION MIC” value in the assay with S. cholerasius GC 1355 (Human Serum) is reported as above 64 UG/ML; in the assay with S. cholerasius GC 1355 (Mouse Serum) it was 8 UG/ML; in the assay with S. cholerasius GC 1355 (Water), above 64 UG/ML; in the assay on Salmonella spp. GC 235 (Human Serum), 64 UG/ML; in the assay with Salmonella spp. GC 235 (Mouse Serum), 2 UG/ML; in the assay on Salmonella spp. GC 235 (Water), above 64 UG/ML. Also, the “MINIMAL INHIBITORY CONCENTRATION MIC” value in the assay with Salmonella spp. GC 566 (Human Serum) is recorded as 64 UG/ML; with Salmonella spp. GC 566 (Mouse Serum) it was 4 UG/ML; in the assay with Salmonella spp. GC 566 (Water) it was above 64 UG/ML.

Consider `CN(C)c1cc(NC(=O)CN(C(=O)OCOC(=O)c2ccc(F)cc2)C(C)(C)C)c(O)c2c1C[C@H]1C[C@H]3[C@H](N(C)C)C(O)=C(C(N)=O)C(=O)[C@@]3(O)C(O)=C1C2=O` [Example 52, ({[(2-{[(5aR,6aS,7S,10aS)-9-(aminocarbonyl)-4,7-bis(dimethylamino)-1,8,10a,11-tetrahydroxy-10,12-dioxo-5,5a,6,6a,7,10,10a,12-octahydrotetracen-2-yl]amino}-2-oxoethyl)(tert-butyl)amino]carbonyl}oxy)methyl 4-fluorobenzoate], for which the “MINIMAL INHIBITORY CONCENTRATION MIC” value in the assay on S. cholerasius GC 1355 (Human Serum) was above 64 UG/ML; in the assay on S. cholerasius GC 1355 (Mouse Serum), 4 UG/ML; with S. cholerasius GC 1355 (Water) it was above 64 UG/ML; in the assay on Salmonella spp. GC 235 (Human Serum), 16 UG/ML; in the assay with Salmonella spp. GC 235 (Mouse Serum), 1 UG/ML; with Salmonella spp. GC 235 (Water) it was 16 UG/ML. The entries for the “MINIMAL INHIBITORY CONCENTRATION MIC” value in the assay with Salmonella spp. GC 566 (Human Serum), with Salmonella spp. GC 566 (Mouse Serum) and in the assay with Salmonella spp. GC 566 (Water) were 32 UG/ML, 2 UG/ML and 64 UG/ML, respectively.

With `CC(C)CC(=O)OCOC(=O)N(CC(=O)Nc1cc(N(C)C)c2c(c1O)C(=O)C1=C(O)[C@]3(O)C(=O)C(C(N)=O)=C(O)[C@@H](N(C)C)[C@@H]3C[C@@H]1C2)C(C)(C)C` [Example 53, ({[(2-{[(5aR,6aS,7S,10aS)-9-(aminocarbonyl)-4,7-bis(dimethylamino)-1,8,10a,11-tetrahydroxy-10,12-dioxo-5,5a,6,6a,7,10,10a,12-octahydrotetracen-2-yl]amino}-2-oxoethyl)(tert-butyl)amino]carbonyl}oxy)methyl 3-methylbutanoate], the “MINIMAL INHIBITORY CONCENTRATION MIC” value with S. cholerasius GC 1355 (Human Serum) is given as 64 UG/ML; with S. cholerasius GC 1355 (Mouse Serum), 8 UG/ML; with S. cholerasius GC 1355 (Water), above 64 UG/ML; in the assay on Salmonella spp. GC 235 (Human Serum), 64 UG/ML; with Salmonella spp. GC 235 (Mouse Serum) it was 2 UG/ML; in the assay on Salmonella spp. GC 235 (Water), 64 UG/ML. Further, the “MINIMAL INHIBITORY CONCENTRATION MIC” value in the assay with Salmonella spp. GC 566 (Human Serum) is reported as 32 UG/ML; with Salmonella spp. GC 566 (Mouse Serum), 2 UG/ML; in the assay on Salmonella spp. GC 566 (Water) it was above 64 UG/ML.

Take `CCCCOC(=O)N(CC(=O)Nc1cc(N(C)C)c2c(c1O)C(=O)C1=C(O)[C@]3(O)C(=O)C(C(N)=O)=C(O)[C@@H](N(C)C)[C@@H]3C[C@@H]1C2)C(C)(C)C` [Example 58, butyl 2-{[(5aR,6aS,7S,10aS)-9-(aminocarbonyl)-4,7-bis(dimethylamino)-1,8,10a,11-tetrahydroxy-10,12-dioxo-5,5a,6,6a,7,10,10a,12-octahydrotetracen-2-yl]amino}-2-oxoethyl(tert-butyl)carbamate]: the “MINIMAL INHIBITORY CONCENTRATION MIC” value in the assay on S. cholerasius GC 1355 (Human Serum), with S. cholerasius GC 1355 (Mouse Serum), in the assay on S. cholerasius GC 1355 (Water), in the assay on Salmonella spp. GC 235 (Human Serum), in the assay on Salmonella spp. GC 235 (Mouse Serum) and in the assay with Salmonella spp. GC 235 (Water) was above 64 UG/ML in each case. For the same molecule, the “MINIMAL INHIBITORY CONCENTRATION MIC” value with Salmonella spp. GC 566 (Human Serum), in the assay with Salmonella spp. GC 566 (Mouse Serum) and in the assay with Salmonella spp. GC 566 (Water) was above 64 UG/ML in each case.
